Values after ≈ are worked out from the molar mass of the structure shown.
Test system: M. tuberculosis strain H37Rv
Test: microbe, parasite or virus in culture
Type: cell-based
Conditions: Mycobacterium tuberculosis, MABA, at least 90% reduction, average of three measurements, Table 2

Structure (SMILES): O=C(NC1CCCCCCC1)c1cc2c(C(F)(F)F)cc(C(F)(F)F)cc2[nH]1 [Compound 36, N-Cyclooctyl-4,6-bis(trifluoromethyl)-1H-indole-2-carboxamide]
- MIC: 0.04 µM (≈ 0.0163 µg/mL)

Structure (SMILES): O=C(NC1CCCCCCC1)c1cc2c(F)cc(F)cc2[nH]1 [Compound 29, N-Cyclooctyl-4,6-difluoro-1H-indole-2-carboxamide]
- MIC: 0.1 µM (≈ 0.0306 µg/mL)

— patent US20170044100A1, “INHIBITORS OF DRUG-RESISTANT MYCOBACTERIUM TUBERCULOSIS” (THE JOHNS HOPKINS UNIVERSITY, priority 2014, published 2017)
